Data taken from patent US11820973B2, “Methods and system for interfering with viability of bacteria and related compounds and compositions” (CALIFORNIA INSTITUTE OF TECHNOLOGY, priority 2011, dated 2023).

Test system: P. aeruginosa PA14 wild type and feoB::MAR2xT7 mutant
Assay: Planktonic growth in 1% TSB-based biofilm medium
Details: amounts used in the biofilm experiments, batch cultures, 37° C.

B1: conalbumin: Fe(III)-binding protein of the transferrin family, an Fe(III) chelator; substantially iron-free, from Sigma-Aldrich (protein, UniProt P02789 20-705, looked up)
Ovotransferrin: APPKSVIRWCTISSPEEKKCNNLRDLTQQERISLTCVQKATYLDCIKAIANNEADAISLDGGQAFEAGLAPYKLKPIAAEVYEHTEGSTTSYYAVAVVKKGTEFTVNDLQGKTSCHTGLGRSAGWNIPIGTLLHRGAIEWEGIESGSVEQAVAKFFSASCVPGATIEQKLCRQCKGDPKTKCARNAPYSGYSGAFHCLKDGKGDVAFVKHTTVNENAPDQKDEYELLCLDGSRQPVDNYKTCNWARVAAHAVVARDDNKVEDIWSFLSKAQSDFGVDTKSDFHLFGPPGKKDPVLKDLLFKDSAIMLKRVPSLMDSQLYLGFEYYSAIQSMRKDQLTPSPRENRIQWCAVGKDEKSKCDRWSVVSNGDVECTVVDETKDCIIKIMKGEADAVALDGGLVYTAGVCGLVPVMAERYDDESQCSKTDERPASYFAVAVARKDSNVNWNNLKGKKSCHTAVGRTAGWVIPMGLIHNRTGTCNFDEYFSEGCAPGSPPNSRLCQLCQGSGGIPPEKCVASSHEKYFGYTGALRCLVEKGDVAFIQHSTVEENTGGKNKADWAKNLQMDDFELLCTDGRRANVMDYRECNLAEVPTHAVVVRPEKANKIRDLLERQEKRFGVNGSEKSKFMMFESQNKDLLFKDLTKCLFKVREGTTYKEFLGDKFYTVISSLKTCNPSDILQMCSFLEGK
modifications: iron-free
notes: substantially iron-free, from Sigma-Aldrich
  Effect on planktonic growth: had no effect on the growth of either strain
